Anti-infective test results gathered from many reports (values: NIAID ChemDB through PubChem).

All rows: growth or infection tests

ECn is the concentration giving n% inhibition of infection, replication or growth. Rows are shuffled and stem from different studies. Fold resistance: result on the changed form divided by that on wild type. a–b is a range or a potency band. An empty or dashed field is not shown. Percent inhibition refers to the dose given; in toxicity tests it is the harm to the cells.

SMILES,endpoint,cells,method,dose,mutations,strain or isolate,organism,result
COc1ccc2c(O[C@@H]3C[C@H]4C(=O)N[C@]5(C(=O)NS(=O)(=O)C6CC6)C[C@H]5/C=C\CCCCN(C)C(=O)[C@@H]4C3)cc(-c3nc(C(C)C)cs3)nc2c1C,EC50,Huh7.5,antigen,,,J6,Hepatitis C virus,0.249 µM
CCC(CCC(C)C1CCC2C3C[C@@H](O)[C@@]4(O)C[C@@H](O)CCC4(C)C3CCC12C)C(C)C,inhibition,HepG2 2.2.15,antigen,25 µg/mL,,,Hepatitis B virus,26.9%
C=C[C@@H]1C[C@]1(NC(=O)[C@@H]1C[C@@H](Oc2nccc3ccc(Br)cc23)CN1C(C)=O)C(=O)NS(=O)(=O)C1CC1,EC50,,luciferase,,,1b C159S,Hepatitis C virus,>3 µM
CC(C)(C)OC(=O)N[C@@H]1CCCCC/C=C\[C@@H]2C[C@@]2(C(=O)NS(=O)(=O)C2CC2)NC(=O)[C@@H]2C[C@@H](OC(=O)N3Cc4cccc(F)c4C3)CN2C1=O,EC50,Huh7.5,antigen,,,S52,Hepatitis C virus,0.894 µM
Nc1ncnc2c1ncn2CCOCP(=O)(O)O,inhibition,PHH,PCR,1 µM,,Genotype D,Hepatitis B virus,50–80%
COC(=O)N[C@H](C(=O)N1CCC[C@H]1c1ncc(-c2ccc(-c3ccc(-c4cnc([C@@H]5CCCN5C(=O)[C@@H](NC(=O)OC)C(C)C)[nH]4)cc3)cc2)[nH]1)C(C)C,inhibition,Huh7,luciferase / replicon,0.00002 µM,,1b Con1,Hepatitis C virus,58.64%
COC(=O)N[C@H](C(=O)N1CCC[C@H]1c1ncc(-c2ccc(-c3ccc(-c4cnc([C@@H]5CCCN5C(=O)[C@@H](NC(=O)OC)C(C)C)[nH]4)cc3)cc2)[nH]1)C(C)C,fold resistance,1C,luciferase,,L31V,Con1,Hepatitis C virus,17
COC(=O)CCC1COP(=O)(CO[C@H](C)Cn2cnc3c(N)ncnc32)OC1,inhibition,PHH,PCR,1 µM,,Genotype D,Hepatitis B virus,>80%
Clc1ccc(Cn2c(CN3CCCC3)nc3ccccc32)cc1,inhibition,Huh7,luciferase / replicon,17.5 µM,,1b Con1,Hepatitis C virus,73.58%
CCCCCCOC(=O)CC1COP(=O)(CO[C@H](C)Cn2cnc3c(N)ncnc32)OC1,inhibition,HepaRG,PCR,1 µM,,Genotype D,Hepatitis B virus,30–50%
CC(C)OC(=O)[C@H](C)N[P@](=O)(OC[C@H]1O[C@@](C#N)(c2ccc3c(N)ncnn23)[C@](C)(O)[C@@H]1OC(=O)C(C)C)Oc1ccccc1,fold resistance,1C,luciferase,,N142T,1b Con1,Hepatitis C virus,1.1
Nc1ccn([C@@H]2CS[C@H](CO)O2)c(=O)n1,EC50,HepG2,,,,Mutation L526M,Hepatitis B virus,0.03 µM
CC(C)OC(=O)CC1COP(=O)(CO[C@H](C)Cn2cnc3c(NC(=O)C(C)C)ncnc32)OC1,inhibition,PHH,PCR,1 µM,,Genotype D,Hepatitis B virus,≤30%
C[C@@]1(O)[C@H](O)[C@@H](CO)O[C@H]1n1ccc2c(N)ncnc21,inhibition,HepG2-T5B,MTT,10 µg/mL,,,Hepatitis C virus,0%
CCOC(=O)CCC1COP(=O)(CO[C@H](C)Cn2cnc3c(N)ncnc32)OC1,inhibition,PHH,PCR,1 µM,,Genotype D,Hepatitis B virus,50–80%
C[C@@]1(O)[C@H](O)[C@@H](CO)O[C@H]1c1c[nH]c2c(N)ncnc12,inhibition,Hep3B-T5B,MTT,50 µg/mL,,,Hepatitis C virus,7.84%
CC(C)(CO)C(=O)SCCOP(=O)(NCc1ccccc1)OC[C@H]1O[C@@H](n2cnc3c(=O)[nH]c(N)nc32)[C@](C)(O)[C@@H]1O,fold resistance,Replicon cells,replicon,,Q30H,GT1a,Hepatitis C virus,1.07
CCOC(=O)CC1COP(=O)(CO[C@H](C)Cn2cnc3c(N(C(C)=O)C(C)=O)ncnc32)OC1,inhibition,PHH,PCR,1 µM,,Genotype D,Hepatitis B virus,50–80%

For reference, 2 entries again:

SMILES | endpoint | cells | method | dose | mutations | strain or isolate | organism | result
Nc1ncnc2c1ncn2CCOCP(=O)(O)O | inhibition | PHH | PCR | 1 µM |  | Genotype D | Hepatitis B virus | 50–80%
C[C@@]1(O)[C@H](O)[C@@H](CO)O[C@H]1c1c[nH]c2c(N)ncnc12 | inhibition | Hep3B-T5B | MTT | 50 µg/mL |  |  | Hepatitis C virus | 7.84%